Data from patent US7642280B2, “Inhibitors of acyl glucosaminyl inositol amidase and methods of use” (The Regents of the University of California, priority 2001, dated 2010).

By UniProt entry, the sequences of proteins in these tests, tags left out.
UniProt P9WJN1, whole entry: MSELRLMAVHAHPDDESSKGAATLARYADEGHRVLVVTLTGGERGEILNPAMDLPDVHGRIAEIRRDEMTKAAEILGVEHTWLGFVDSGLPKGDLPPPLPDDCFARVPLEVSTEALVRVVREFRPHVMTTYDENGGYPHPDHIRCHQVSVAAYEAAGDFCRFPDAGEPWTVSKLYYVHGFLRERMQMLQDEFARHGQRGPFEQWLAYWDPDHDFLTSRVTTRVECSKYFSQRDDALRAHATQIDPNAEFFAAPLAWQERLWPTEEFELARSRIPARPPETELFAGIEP

Biological target: M. tuberculosis MCA (Mycobacterium tuberculosis, UniProt P9WJN1)
Experiment: Fluorescence-based HPLC IC50 assay, recombinant M. tuberculosis MCA with synthetic MSmB
Conditions: read-out: IC50 M. tb; recombinant M. tuberculosis MCA approx. 20 nM, 30 μM synthetic MSmB, 20 min, 31° C.

Row | SMILES | IC50 [µM]
1 | NCCCOc1c(Br)cc(CC(=NO)C(=O)NCCc2cnc(N)[nH]2)cc1Br | 30
2 | N=C(N)NCCCCNC(=O)C(Cc1cc(Br)c(OCCCN)c(Br)c1)=NO | 10
